{"source": "patent US9597417B2", "about": "“Compositions and methods to evaluate hepatobiliary/gastrointestinal health, enterohepatic circulation, and drug interactions” (The United States of America as represented by the …, priority 2013, dated 2017)", "origin": "cited, not measured here", "biological_target": "choloylglycine hydrolase from Clostridium perfringens (Clostridium perfringens, UniProt P54965)", "conditions": "previously shown (ref. 15); cited from earlier work", "data": [{"molecule": "C[C@H](CCC(=O)N[C@@H](CCCCNC(=O)C(F)(F)F)C(=O)O)[C@H]1CC[C@H]2[C@@H]3[C@H](O)C[C@@H]4C[C@H](O)CC[C@]4(C)[C@H]3C[C@H](O)[C@]12C", "values": [{"measurement": "susceptibility to deconjugation by CGH", "value": "susceptible to deconjugation by CGH"}]}]}
